In this experiment the test system is unidentified influenza virus. Description: Antiviral activity against recombinant influenza virus WSN harboring PB1 456H codon infected in MDCK cells assessed as reduction in cytopathic effect by fluorescence based analysis. As to conditions: strain WSN.

Each structure is given as a SMILES string.

Turning to `COCCCn1c2c(c(SCc3ccc(Cl)cc3)nc1=O)CCC2`, the IC50 turned out to be 300 nM.

For orientation: IC50 means the concentration at which inhibition is half-maximal.

Source of the values: ChEMBL document CHEMBL5376009 (RSC Med Chem, 2024).
